## DMS reactivity of the HIV-1 5' RNA in monomer and dimer

Data from the supplement of Ye et al. 2022, doi:10.1038/s41594-022-00746-2.

Sequence of the HIV-1 NL4-3 5' RNA, positions 1 to 437, as numbered in the source:
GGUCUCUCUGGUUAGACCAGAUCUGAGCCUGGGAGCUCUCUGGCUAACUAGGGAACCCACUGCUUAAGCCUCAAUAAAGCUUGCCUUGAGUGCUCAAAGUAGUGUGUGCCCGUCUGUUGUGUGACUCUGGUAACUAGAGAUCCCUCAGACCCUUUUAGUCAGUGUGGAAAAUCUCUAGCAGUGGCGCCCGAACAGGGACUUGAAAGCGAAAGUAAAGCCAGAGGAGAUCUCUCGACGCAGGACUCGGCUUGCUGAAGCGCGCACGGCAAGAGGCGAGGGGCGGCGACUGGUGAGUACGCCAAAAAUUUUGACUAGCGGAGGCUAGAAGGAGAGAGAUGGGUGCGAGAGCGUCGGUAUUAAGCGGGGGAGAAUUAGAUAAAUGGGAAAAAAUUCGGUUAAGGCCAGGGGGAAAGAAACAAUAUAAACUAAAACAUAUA

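Mutant RNA libraries with 1G, 2G or 3G starts, with or without cap, were folded at 37 °C for 30 min. High salt was 300 mM KCl and 5 mM MgCl2, low salt 40 mM KCl and 0.1 mM MgCl2; monomer and dimer were parted on a native gel. Each band was probed in the gel with DMS (170 mM, 15 min, 37 °C), with ethanol as control, and sequenced.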

Scale: normalised reactivity, A and C only; low values point to paired or protected bases, higher values to unpaired ones. One numbering serves 1G, 2G and 3G. A position is written with its base.

{"position": "A435", "3G uncapped high-salt dimer": 0.46, "1G capped low-salt monomer": 0.51, "2G capped low-salt monomer": 0.50}
{"position": "C29", "3G uncapped high-salt dimer": 0.09, "1G capped low-salt monomer": 0.13, "2G capped low-salt monomer": 0.10}
{"position": "C72", "3G uncapped high-salt dimer": 0.12, "1G capped low-salt monomer": 0.16, "2G capped low-salt monomer": 0.08}
{"position": "C262", "3G uncapped high-salt dimer": 0.22, "1G capped low-salt monomer": 0.42, "2G capped low-salt monomer": 0.41}
{"position": "A239", "3G uncapped high-salt dimer": 0.65, "1G capped low-salt monomer": 0.57, "2G capped low-salt monomer": 0.55}
{"position": "A330", "3G uncapped high-salt dimer": 0.80, "1G capped low-salt monomer": 0.93, "2G capped low-salt monomer": 0.94}
{"position": "C248", "3G uncapped high-salt dimer": 0.03, "1G capped low-salt monomer": 0.05, "2G capped low-salt monomer": 0.06}
{"position": "C111", "3G uncapped high-salt dimer": 0.14, "1G capped low-salt monomer": 0.25, "2G capped low-salt monomer": 0.28}
{"position": "C207", "3G uncapped high-salt dimer": 0.50, "1G capped low-salt monomer": 0.48, "2G capped low-salt monomer": 0.47}
{"position": "C236", "3G uncapped high-salt dimer": 0.42, "1G capped low-salt monomer": 0.57, "2G capped low-salt monomer": 0.53}
{"position": "C432", "3G uncapped high-salt dimer": 0.85, "1G capped low-salt monomer": 0.93, "2G capped low-salt monomer": 0.85}
{"position": "A433", "3G uncapped high-salt dimer": 0.69, "1G capped low-salt monomer": 0.75, "2G capped low-salt monomer": 0.72}
{"position": "C233", "3G uncapped high-salt dimer": 0.18, "1G capped low-salt monomer": 0.29, "2G capped low-salt monomer": 0.30}
{"position": "C134", "3G uncapped high-salt dimer": 0.17, "1G capped low-salt monomer": 0.15, "2G capped low-salt monomer": 0.17}
{"position": "C193", "3G uncapped high-salt dimer": 0.87, "1G capped low-salt monomer": 0.81, "2G capped low-salt monomer": 0.85}
{"position": "A132", "3G uncapped high-salt dimer": 0.42, "1G capped low-salt monomer": 0.52, "2G capped low-salt monomer": 0.48}
{"position": "C252", "3G uncapped high-salt dimer": 0.07, "1G capped low-salt monomer": 0.18, "2G capped low-salt monomer": 0.23}
{"position": "C36", "3G uncapped high-salt dimer": 0.03, "1G capped low-salt monomer": 0.04, "2G capped low-salt monomer": 0.03}
{"position": "A235", "3G uncapped high-salt dimer": 0.69, "1G capped low-salt monomer": 0.67, "2G capped low-salt monomer": 0.64}
{"position": "A380", "3G uncapped high-salt dimer": 0.78, "1G capped low-salt monomer": 0.84, "2G capped low-salt monomer": 0.80}
{"position": "A211", "3G uncapped high-salt dimer": 0.43, "1G capped low-salt monomer": 0.39, "2G capped low-salt monomer": 0.40}
{"position": "A256", "3G uncapped high-salt dimer": 0.90, "1G capped low-salt monomer": 0.88, "2G capped low-salt monomer": 0.78}
{"position": "C187", "3G uncapped high-salt dimer": 0.03, "1G capped low-salt monomer": 0.04, "2G capped low-salt monomer": 0.03}
{"position": "C84", "3G uncapped high-salt dimer": 0.39, "1G capped low-salt monomer": 0.56, "2G capped low-salt monomer": 0.49}
{"position": "C219", "3G uncapped high-salt dimer": 0.04, "1G capped low-salt monomer": 0.04, "2G capped low-salt monomer": 0.04}
{"position": "A242", "3G uncapped high-salt dimer": 1.11, "1G capped low-salt monomer": 0.91, "2G capped low-salt monomer": 0.83}

The opening 3 entries, copied out:

* A435: 3G uncapped high-salt dimer 0.46; 1G capped low-salt monomer 0.51; 2G capped low-salt monomer 0.50
* C29: 3G uncapped high-salt dimer 0.09; 1G capped low-salt monomer 0.13; 2G capped low-salt monomer 0.10
* C72: 3G uncapped high-salt dimer 0.12; 1G capped low-salt monomer 0.16; 2G capped low-salt monomer 0.08